According to paper PMC6789456, “Ursolic Acid Derivatives as Potential Agents Against Acanthamoeba Spp” (Pathogens, 2019):

Experiments:
[1] = test system: Acanthamoeba castellanii Neff; experiment: In vitro effect against the trophozoite stage, Alamar Blue assay; assay type: cell-based; settings: selectivity index, murine macrophages CC50 vs A. castellanii Neff IC50
Protocol: (§1) The anti-Acanthamoeba activity of molecules was evaluated against the Acanthamoeba castellanii Neff (ATCC 30010) type strain from the American Type Culture Collection and Acanthamoeba griffini obtained in previous studies. Those strains were grown axenically in Peptone Yeast Glucose (PYG) medium (0.75% (w/v) proteose peptone, 0.75% (w/v) yeast extract, and 1.5% (w/v) glucose) containing 40 μg of gentamicin ml−1 (Biochrom AG, Cultek, Granollers, Barcelona, Spain).
(§2) The anti-Acanthamoeba activities of the compounds were determined by the Alamar Blue assay as previously described. Briefly, Acanthamoeba strains were seeded in duplicate on a 96-well microtiter plate with 50 μL from a stock solution of 10^4 cells mL^−1. Amoebae were allowed to adhere for 15 min and 50 μL of serial dilution series of the eye drop solution was added. Finally, the Alamar Blue assay reagent (Bioresource, Europe, Nivelles, Belgium) was added into each well at an amount equal to 10% of the medium volume. The plates were then incubated for 96 h at 28 °C with a slight agitation and the emitted fluorescence was measured with an Enspire microplate reader (PerkinElmer, Massachusetts, USA) at 570/585 nm.

Acanthamoeba griffini = experiment: as above; assay type: cell-based; settings: selectivity index, murine macrophages CC50 vs A. griffini IC50
Protocol: as §1, §2

[H]/N=C(\N/C(=N/[H])NCCCCCCNC(=N)NC(=N)Nc1ccc(Cl)cc1)Nc1ccc(Cl)cc1 [Chlorhexidine, reference compound]
SI for A. Neff [1]: 2.5 | SI for A. Griffini (Acanthamoeba griffini): 2.0

C[C@H]1[C@H](C)CC[C@]2(C(=O)O)CC[C@]3(C)C(=CC[C@@H]4[C@@]5(C)CC[C@H](O)C(C)(C)[C@@H]5CC[C@]43C)[C@H]12 [Compound 1, Ursolic acid]
SI for A. Neff [1]: 0.4 | SI for A. Griffini (Acanthamoeba griffini): 1.2

CC(=O)O[C@H]1CC[C@@]2(C)C(CC[C@]3(C)C2CC=C2C4[C@@H](C)[C@H](C)CC[C@]4(C(=O)O)CC[C@]23C)C1(C)C (stereo partly drawn) [Compound 2]
SI for A. Neff [1]: 3.9 | SI for A. Griffini (Acanthamoeba griffini): 8.4

C[C@@H]1CC[C@]2(C(=O)O)CC[C@]3(C)C(=CCC4[C@@]5(C)CCC(=O)C(C)(C)C5CC[C@]43C)C2[C@H]1C (stereo partly drawn) [Compound 3]
SI for A. Neff [1]: >2.9 | SI for A. Griffini (Acanthamoeba griffini): >9.7

COC(=O)[C@]12CC[C@@H](C)[C@H](C)C1C1=CCC3[C@@]4(C)CC[C@H](O)C(C)(C)C4CC[C@@]3(C)[C@]1(C)CC2 (stereo partly drawn) [Compound 4]
SI for A. Neff [1]: 1.2 | SI for A. Griffini (Acanthamoeba griffini): 3.0

COC(=O)[C@]12CC[C@@H](C)[C@H](C)C1C1=CCC3[C@@]4(C)CC[C@H](OC)C(C)(C)C4CC[C@@]3(C)[C@]1(C)CC2 (stereo partly drawn) [Compound 5]
SI for A. Neff [1]: >4.4 | SI for A. Griffini (Acanthamoeba griffini): >14.5

COC(=O)[C@]12CC[C@@H](C)[C@H](C)C1C1=CCC3[C@@]4(C)CC[C@H](OC(C)=O)C(C)(C)C4CC[C@@]3(C)[C@]1(C)CC2 (stereo partly drawn) [Compound 6]
SI for A. Neff [1]: >2.7 | SI for A. Griffini (Acanthamoeba griffini): >11.0

COC(=O)[C@]12CC[C@@H](C)[C@H](C)C1C1=CCC3[C@@]4(C)CC[C@H](OC(=O)c5ccc([N+](=O)[O-])cc5)C(C)(C)C4CC[C@@]3(C)[C@]1(C)CC2 (stereo partly drawn) [Compound 7, 3β-(p-nitrobenzoyloxy)-urs-12-en-28-oic acid methyl ester]
SI for A. Neff [1]: >4.7 | SI for A. Griffini (Acanthamoeba griffini): >14.9

COC(=O)[C@]12CC[C@@H](C)[C@H](C)C1C1=CCC3[C@@]4(C)CC[C@H](OC(=O)c5ccccc5)C(C)(C)C4CC[C@@]3(C)[C@]1(C)CC2 (stereo partly drawn) [Compound 8]
SI for A. Neff [1]: >3.0 | SI for A. Griffini (Acanthamoeba griffini): >8.7
